Mutational interference map of HIV-1 RNA dimerization

RNA: 5' end of the HIV-1 NL4-3 genome, made in vitro. Positions 1-437 read:
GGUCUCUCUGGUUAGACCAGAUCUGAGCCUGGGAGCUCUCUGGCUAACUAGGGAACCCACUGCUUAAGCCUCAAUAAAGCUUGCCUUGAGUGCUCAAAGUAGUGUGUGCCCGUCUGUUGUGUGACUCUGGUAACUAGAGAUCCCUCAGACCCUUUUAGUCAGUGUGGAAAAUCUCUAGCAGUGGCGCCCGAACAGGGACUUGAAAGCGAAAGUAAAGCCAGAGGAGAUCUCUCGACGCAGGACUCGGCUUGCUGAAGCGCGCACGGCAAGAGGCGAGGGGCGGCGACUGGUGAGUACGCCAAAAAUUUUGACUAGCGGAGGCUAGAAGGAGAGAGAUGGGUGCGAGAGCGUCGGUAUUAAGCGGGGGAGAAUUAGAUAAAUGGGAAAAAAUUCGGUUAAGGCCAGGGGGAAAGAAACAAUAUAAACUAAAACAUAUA

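Randomly mutated transcripts starting with one, two or three G (1G, 2G, 3G), capped or uncapped, were folded for 30 min at 37 °C. Monomer and dimer bands were cut from native gels after folding in high salt (300 mM KCl, 5 mM MgCl2) or low salt (40 mM KCl, 0.1 mM MgCl2). Mutation frequencies in the two bands give Kdimer.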

Scale: median log2 Kdimer over the changes at a position; positive = changes inhibit dimerization, negative = changes enhance it. Sample: 2G capped high-salt. One numbering serves 1G, 2G and 3G. A position is written with its base where known.

| # | position | domain | 2G capped high-salt |
|---|---|---|---|
| 1 | U22 | TAR | -0.03 |
| 2 | C23 | TAR | 0.07 |
| 3 | U24 | TAR | -0.13 |
| 4 | G35 | TAR | -0.44 |
| 5 | C36 | TAR | -0.33 |
| 6 | U37 | TAR | -0.44 |
| 7 | A55 | TAR | 0.21 |
| 8 | C60 | PolyA | 0.50 |
| 9 | U61 | PolyA | 0.25 |
| 10 | A73 | PolyA | 0.01 |
| 11 | A78 | PolyA | 0.09 |
| 12 | G79 | PolyA | 0.07 |
| 13 | C84 | PolyA | -0.35 |
| 14 | G88 | PolyA | 0.14 |
| 15 | A97 | PolyA | 0.01 |
| 16 | A98 | PolyA | 0.21 |
| 17 | G102 | PolyA | -0.09 |
| 18 | G106 | U5 | -0.24 |
| 19 | C109 | U5 | 0.09 |
| 20 | C110 | U5 | 0.10 |
| 21 | G121 | none | -0.12 |
| 22 | G123 | none | -0.19 |
| 23 | C127 | PAS | 0.03 |
| 24 | A138 | PBS | -0.01 |
| 25 | C151 | PBS | -0.03 |
| 26 | A157 | PBS | 0.04 |
| 27 | U163 | PBS | 0.15 |
| 28 | G166 | PBS | -0.10 |
| 29 | C175 | PBS | -0.26 |
| 30 | G190 | PBS | 0.16 |
| 31 | A198 | PBS | 0.20 |
| 32 | U201 | PBS | 0.13 |
| 33 | A209 | PBS | 1.17 |
| 34 | U213 | PBS | -0.35 |
| 35 | A216 | PBS | -0.31 |
| 36 | A222 | antiPAS | -0.10 |
| 37 | U228 | CU | 0.04 |
| 38 | U230 | CU | 0.78 |
| 39 | C238 | none | 2.86 |
| 40 | U244 | SL1 | 0.57 |
| 41 | C258 | SL1 | 4.80 |
| 42 | G266 | SL1 | 4.61 |
| 43 | A268 | SL1 | 2.95 |
| 44 | G275 | SL1 | 2.74 |
| 45 | G279 | none | -0.10 |
| 46 | G285 | SL2 | 1.15 |
| 47 | G290 | SL2 | 0.00 |
| 48 | A303 | none | 0.08 |
| 49 | U307 | none | 0.15 |
| 50 | G310 | none | -0.21 |
| 51 | G315 | SL3 | 0.33 |
| 52 | C322 | SL3 | 0.22 |
| 53 | A336 | AUG | -0.08 |
| 54 | G338 | AUG | 0.03 |
| 55 | C343 | AUG | -0.09 |
| 56 | G344 | AUG | -0.15 |
| 57 | G346 | none | -0.13 |
| 58 | G350 | none | -0.05 |
| 59 | G354 | none | -0.14 |
| 60 | U357 | none | 0.07 |
| 61 | A360 | none | 0.00 |
| 62 | G364 | none | -0.16 |
| 63 | G366 | none | 0.12 |
| 64 | A368 | none | 0.22 |
| 65 | U373 | none | -0.09 |
| 66 | A378 | none | -0.04 |
| 67 | G383 | none | 0.19 |
| 68 | A389 | none | 0.16 |
| 69 | A390 | none | 0.02 |
| 70 | A399 | none | -0.01 |
| 71 | G400 | none | -0.01 |
| 72 | C402 | none | -0.01 |
| 73 | G408 | none | -0.05 |
| 74 | A412 | none | 0.07 |
| 75 | A423 | none | 0.26 |
| 76 | U434 | none | -0.20 |
| 77 | 439 | none | 0.04 |
| 78 | 443 | none | 0.13 |
| 79 | 449 | none | 0.27 |
| 80 | 451 | none | 0.29 |
| 81 | 453 | none | 0.05 |
| 82 | 455 | none | -0.04 |
| 83 | 457 | none | -0.12 |
| 84 | 458 | none | 0.08 |
| 85 | 461 | none | 0.06 |
| 86 | 470 | none | 0.09 |
| 87 | 473 | none | 0.00 |
| 88 | 492 | none | 0.08 |
| 89 | 495 | none | 0.07 |
| 90 | 498 | none | 0.08 |
| 91 | 500 | none | -0.11 |
| 92 | 501 | none | 0.18 |
| 93 | 504 | none | 0.05 |
| 94 | 505 | none | -0.07 |
| 95 | 509 | none | -0.01 |
| 96 | 510 | none | 0.01 |
| 97 | 511 | none | 0.03 |

Extract of 6 entries:

- G285 (domain SL2) -> 1.15
- U61 (domain PolyA) -> 0.25
- G315 (domain SL3) -> 0.33
- G102 (domain PolyA) -> -0.09
- U163 (domain PBS) -> 0.15
- A360 -> 0.00

The source gives no letters past position 437.

Reference: Ye et al. 2022, doi:10.1038/s41594-022-00746-2.